# Data: patent publication US12036229B2, “Use of phosphorylated heptose compounds” (NATIONAL RESEARCH COUNCIL OF CANADA, priority 2017, dated 2024)
# Key:
# [1] = tested on: N. meningitidis strain expressing the homologous TbpB; assay: N. meningitidis challenge of immunized mice (sepsis model); settings: adjuvant with 25 μg TbpB
# IgG titers to TbpB = assay: Adjuvant test: immunization with TbpB, IgG titers to TbpB by ELISA; settings: 200 μg with 25 μg TbpB intramuscularly, D0, D21, D28; serum D14, D28, D35; FIG. 15a
# [2] = tested on: latent recombinant HIV encoding dsRed fluorescent protein in Jurkat CD4+ T cell line; assay: Stimulation of HIV proviral expression in Jurkat CD4+ T cells (dsRed); settings: 150 or 300 μM, 24 hours; FIG. 10
substance,measurement,setting,value
D-glycero-D-manno-heptopyranose 1β-phosphate,clinical scores,"[1]; challenge D36, 12 h post challenge, FIG. 15c",lower
same,bacterial burden (CFU in blood),"[1]; challenge D36 with 5×10^7 N. meningitidis, blood at 1 h, FIG. 15b",reduced
same,IgG titers to TbpB,IgG titers to TbpB,titers that were significantly higher than administration of TbpB alone and greater than observed with alum as the adjuvant
same,"HIV proviral expression (dsRed fluorescence, flow cytometry)",[2],can drive HIV out of latency in vitro
